# Assay results as given in article PMC10618370, “Mur ligase F as a new target for the flavonoids quercitrin, myricetin, and (–)-epicatechin” (Journal of Computer-Aided Molecular Design, 2023).
# Some compounds share one wording; it may come from a single statement.
# Test: Assay interference screen (malachite green-based assay)
# Conditions: 100 µM compound, absorbance at 650 nm
row,Compound,Interference with the malachite green assay (in words)
1,O=c1cc(-c2ccc(O)c(O)c2)oc2cc(OC3OC(CO)C(O)C(O)C3O)cc(O)c12 (stereo not drawn) [Compound 15],increased the absorbance at 650 nm
2,"Oc1cc(O)c2c(c1)O[C@H](c1ccc(O)c(O)c1)[C@@H](O)C2 [Compound 22, (+)-catechin]",increased the absorbance at 650 nm
3,"COc1cc([C@@H]2[C@H]3CO[C@@]4(O)C(=O)[C@@H]2C=C([C@H]2Oc5cc(O)cc(O)c5C(=O)[C@@H]2O)[C@@H]34)ccc1O [Compound 24, silydianin]",increased the absorbance at 650 nm
